Results of unrelated studies side by side (data: NIAID ChemDB).

All rows: whole-cell or culture tests; species: Hepatitis C virus; read by: replicon; endpoint: EC50

Two numbers with a dash give a range or band. An empty or dashed field is not shown. Neighbouring rows are from separate reports. ECn: concentration that inhibits the pathogen or its effect by n%.

smiles,cells,strain,result
C=CC1CC1(NC(=O)[C@@H]1C[C@@H](OC(=O)Nc2cc(C)ccc2-c2nccs2)CN1C(=O)[C@@H](NC(=O)OC(C)(C)C)C(C)(C)C)C(=O)NS(=O)(=O)C1CC1,Huh7,1b,<0.1 µM
CNC(=O)c1c(-c2ccc(F)cc2)oc2cc(-c3cc(COC)on3)c(OC(C)C)cc12,Huh7,-,<1 µM
NS(=O)(=O)c1ccc(CNc2nc(NC3CC3)c3nc(-c4ccc(C(=O)NC5CC5)cc4)ccc3n2)cc1,-,-,<0.1 µM
O=C(O)c1ccc2c(C3CCCCC3)c3n(c2c1)CCCc1ccccc1-3,Huh7,-,1–10 µM
O=C(NS(=O)(=O)C1CC1)c1c(-c2ccc[nH]c2=O)c2c3c(ccc2n1Cc1cc(F)ccc1F)CCCO3,-,-,<1 µM
C=C[C@H]1C[C@@]1(NC(=O)[C@@H]1C[C@@H](Oc2cc(-c3ccccc3)nc3cc(OC)ccc23)CN1C(=O)[C@@H](NC(=O)OC(C)(C)C)C(C)(C)C)C(=O)NS(=O)(=O)C1(CC)CC1,Huh7,1b,<0.05 µM
COc1cccc(CC(=O)N/N=C/c2c(C)cccc2OS(=O)(=O)c2ccc(C)cc2)c1,Huh7,-,<5 µM
Cc1nn(C)c2nc(Cl)c(Cn3c(C(=O)O)c(-c4ccc[nH]c4=O)c4c5occc5c(F)cc43)cc12,-,-,<0.5 µM
CN(C)C(=O)S(=O)(=O)NC(=O)c1ccc2c(C3CCCCC3)c3n(c2c1)CC(C(=O)N1CCN(c2ccncc2)CC1)=Cc1cccnc1-3,Huh7,-,0.01–1 µM
CN1CCN(c2cc3c(cc2F)c(=O)c(-c2noc(C(CCCC(N)=O)c4ccccc4)n2)cn3Cc2ccc(Cl)cc2)CC1,-,1b,<10 µM
C=CC1CC1(NC(=O)[C@@H]1C[C@@H](OC(=O)NCCc2ccccc2)CN1C(=O)[C@@H](NC(=O)OC(C)(C)C)C(C)(C)C)C(=O)NS(=O)(=O)C1CC1,Huh7,1b,1–10 µM
CN(c1ccccc1/C=N/NC(=O)Cc1cccnc1)S(=O)(=O)c1ccc(C(F)(F)F)cc1,Huh7,-,<5 µM
O=C(NC1CC1)c1ccc(F)c(Cn2c(C(=O)O)c(-c3ccc[nH]c3=O)c3c4occc4c(F)cc32)c1,-,-,>1.5 µM
NS(=O)(=O)c1ccc(CNc2nc(NCC(F)(F)F)c3nc(-c4ccc(NC(=O)[C@H]5CCNC5)c(F)c4)ccc3n2)cc1,-,-,<0.1 µM
CC(C)Cc1nc(-c2cn(CC3CCCCC3)c3cc(N4CCN(C)CC4)c(F)cc3c2=O)no1,-,1b,>10 µM
CCOC(=O)c1nc(-c2ccc(NC(=O)C3(NC(=O)c4ccc5c(C6CCCCC6)c6n(c5c4)CCCc4ccccc4-6)CCCC3)cc2)cs1,Huh7,-,0.01–1 µM
CN1CCN(c2cc3c(cc2F)c(=O)c(-c2noc(Cc4c(F)cccc4F)n2)cn3Cc2ccc(Cl)cc2)CC1,-,1b,<2 µM
CNC(=O)c1c(-c2ccc(F)cc2)oc2cc(N(C)S(C)(=O)=O)c(OC(F)F)cc12,Huh7,-,<1 µM
CS(=O)(=O)CCNc1nc(N)nc2ccc(-c3cccc(NS(C)(=O)=O)c3)nc12,Huh7,-,0.3–1 µM
CS(=O)(=O)Nc1cccc(S(=O)(=O)NC(=O)c2c(-c3ccc[nH]c3=O)c3c4ccccc4ccc3n2Cc2ccc(F)cc2F)c1,-,-,<1 µM
CCOc1nc(NCc2ncco2)nc2ccc(-c3ccc(F)cc3)nc12,-,-,<0.1 µM
COc1ccc(S(=O)(=O)Oc2ccccc2/C=N/NC(=O)Cc2ccccc2)cc1,Huh7,-,<5 µM
C=CC1CC1(NC(=O)[C@@H]1C[C@@H](OC(=O)Nc2sc3c(c2C(=O)OCC)CCCC3)CN1C(=O)[C@@H](NC(=O)OC(C)(C)C)C(C)(C)C)C(=O)NS(=O)(=O)C1CC1,Huh7,1b,1–10 µM
Cc1cccc(Cc2nc(-c3cn(CC4CCCCC4)c4cc(N5CCN(C)CC5)c(F)cc4c3=O)no2)c1,-,1b,<10 µM
C=C[C@H]1C[C@@]1(NC(=O)[C@@H]1C[C@@H](Oc2cc(-c3ccccc3)nc3cc(OC)ccc23)CN1C(=O)[C@@H](NC(=O)OC(C)(C)C)C(C)(C)C)C(=O)NS(=O)(=O)C1(CC2CC2)CC1,Huh7,1b,<0.05 µM
CN(C)S(=O)NC(=O)c1ccc2c(C3CCCCC3)c3n(c2c1)CC(C(=O)N1CCOCC1)=Cc1ccccc1-3,Huh7,-,1–10 µM
O=C(CCc1cccnc1)N/N=C/c1ccccc1OS(=O)(=O)c1ccc(C(F)(F)F)cc1,Huh7,-,<5 µM
NS(=O)(=O)c1ccc(CNc2nc(NCC(F)(F)F)c3nc(-c4ccc(N5CCCC5=O)cc4)ccc3n2)cc1,-,-,<0.1 µM
CC(C)(C)OC(=O)N(C(=O)OC(C)(C)C)c1cc(Cn2c(C(=O)NS(=O)(=O)C3CC3)c(-c3ccc[nH]c3=O)c3c4occc4c(F)cc32)c(F)cn1,-,-,<0.5 µM
CCOc1nc(NCc2ccc(S(N)(=O)=O)cc2)nc2ccc(-c3ccc(N4CC(O)CC4=O)cc3)nc12,-,-,<0.1 µM
CCc1cc2c(C(=O)NC)c(-c3ccc(F)cc3)oc2cc1N(CCO)S(C)(=O)=O,Huh7,-,<1 µM
CCc1ccc(S(=O)(=O)N/N=C/c2ccccc2OS(=O)(=O)c2ccc(C(F)(F)F)cc2)cc1,Huh7,-,5–50 µM
O=C(O)c1c(-c2ccc[nH]c2=O)c2c3occc3ccc2n1Cc1cc2ccccc2nc1Cl,-,-,<0.5 µM
CC(C)(c1ccccc1)c1nc(-c2cn(C(C)(C)c3ccccc3)c3cc(N4CCOCC4)c(F)cc3c2=O)no1,-,1b,>10 µM
CNC(=O)c1c(-c2ccc(F)cc2)oc2cc(N3CCS(=O)CC3)c(OC(C)C)cc12,Huh7,-,<10 µM
C=CC1CC1(NC(=O)[C@@H]1C[C@@H](Oc2cc(-c3ccccc3)nc3cc(OC)ccc23)CN1C(=O)[C@@H](NC(=O)OC(C)(C)C)C(C)(C)C)C(=O)NS(=O)(=O)C1(C(=O)Nc2ccccc2)CC1,Huh7,1b,0.05–0.5 µM
NS(=O)(=O)c1ccc(CNc2nc(NCC(F)(F)F)c3nc(-c4ccc(Cl)c(S(=O)(=O)NC5CCNC5)c4)ccc3n2)cc1,-,-,<0.1 µM
C=CC1C[C@@]1(NC(=O)[C@@H]1C[C@@H](Oc2cc(-c3ccccc3)nc3cc(OC)ccc23)CN1C(=O)[C@@H](NC(=O)OC1(C(=O)OCC)CC1)C(C)(C)C)C(=O)NS(=O)(=O)C1(Cc2ccccc2)CC1,Huh7,1b,0.05–0.5 µM
CCOc1nc(N)nc2ccc(-c3ccc(C(=O)NOC)cc3)nc12,Huh7,-,0.3–1 µM
CN1CCN(c2cc3c(cc2F)c(=O)c(-c2noc(C4(c5ccccc5)CC4)n2)cn3C2(c3ccc(C(F)(F)F)cc3)CC2)CC1,-,1b,<2 µM
C=CC1CC1(NC(=O)[C@@H]1C[C@@H](OC(=O)NCc2ccccc2C)CN1C(=O)[C@@H](NC(=O)OC(C)(C)C)C(C)(C)C)C(=O)NS(=O)(=O)C1CC1,Huh7,1b,1–10 µM
Cc1cccc(Cn2c(C(=O)NS(=O)(=O)C3CC3)c(-c3ccc[nH]c3=O)c3c4occc4c(F)cc32)c1F,-,-,<0.5 µM
O=C(Cc1nc(-c2cnccn2)no1)N/N=C/c1ccccc1OS(=O)(=O)c1ccc(C(F)(F)F)cc1,Huh7,-,5–50 µM
NS(=O)(=O)c1ccc(CNc2nc(NCC(F)(F)F)c3nc(-c4ccc(F)nc4)ccc3n2)cc1,-,-,<0.1 µM
O=C(NS(=O)(=O)C1CC1)c1c(-c2ccc[nH]c2=O)c2c3occc3cc(F)c2n1Cc1cc(F)ccc1F,-,-,<0.5 µM
C=C[C@H]1C[C@@]1(NC(=O)[C@@H]1C[C@@H](Oc2cc(-c3ccccc3)nc3cc(OC)ccc23)CN1C(=O)[C@@H](NC(=O)OC(C)(C)C)C(C)(C)C)C(=O)NS(=O)(=O)C1(Cc2c(C)noc2C)CC1,Huh7,1b,0.5–5 µM
COC(=O)/C=C/c1ccc(NC(=O)C2(NC(=O)c3ccc4c(C5CCCCC5)c5n(c4c3)CCCc3sc(N)nc3-5)CCCC2)cc1,Huh7,-,>10 µM
COc1cc2c(=O)c(-c3noc(Cc4ccccc4)n3)cn(Cc3ccc(Cl)cc3)c2cc1OC,-,1b,>10 µM
O=C(Cc1ccccc1)N/N=C/c1ccccc1OS(=O)(=O)c1cccc2ccccc12,Huh7,-,>50 µM
COC(=O)c1ccc2c(C3CCCCC3)c3n(c2c1)CC(C(=O)O)=Cc1cc(OC)ccc1-3,Huh7,-,1–10 µM
C=CC1CC1(NC(=O)[C@@H]1C[C@@H](OC(=O)Nc2ccccc2[N+](=O)[O-])CN1C(=O)[C@@H](NC(=O)OC(C)(C)C)C(C)(C)C)C(=O)NS(=O)(=O)C1CC1,Huh7,1b,0.1–1 µM
C=CC1CC1(NC(=O)[C@@H]1C[C@@H](Oc2cc(-c3ccccc3)nc3cc(OC)ccc23)CN1C(=O)[C@@H](NC(=O)OC(C)(C)C)C(C)(C)C)C(=O)NS(=O)(=O)C1(C(=O)Nc2c(C)noc2C)CC1,Huh7,1b,<0.05 µM
O=C(CC1CCCCC1)N/N=C/c1ccccc1OS(=O)(=O)c1ccc(C(F)(F)F)cc1,Huh7,-,5–50 µM
CNC(=O)c1c(-c2occc2C)oc2ccc(OC(C)C)cc12,Huh7,-,<30 µM
O=c1c(-c2noc(Cc3ccccc3)n2)cn(Cc2ccc(C(F)(F)F)cc2F)c2ccccc12,-,1b,>10 µM
CNC(=O)c1c(-c2ccc(F)cc2)oc2cc(N(CC3(CO)CC3)S(C)(=O)=O)c(OCC3(CO)CC3)cc12,Huh7,-,<1 µM
Cc1ccc(C)c(S(=O)(=O)Oc2ccccc2/C=N/NC(=O)Cc2ccccc2)c1,Huh7,-,>50 µM
CC1=C(C(=O)N2CCOCC2)Cc2ccccc2-c2c(C3CCCCC3)c3ccc(C(=O)NS(=O)(=O)N(C)C)cc3n21,Huh7,-,0.01–1 µM
CNC(=O)c1c(-c2ccc(F)cc2)oc2cc(C(C)(C)N)c(OC(C)C)cc12,Huh7,-,<1 µM
Cc1ccccc1Cn1c(C(=O)NS(C)(=O)=O)c(-c2ccc[nH]c2=O)c2c3occc3ccc21,-,-,<0.5 µM

4 of the rows above, restated:

C=CC1CC1(NC(=O)[C@@H]1C[C@@H](OC(=O)Nc2sc3c(c2C(=O)OCC)CCCC3)CN1C(=O)[C@@H](NC(=O)OC(C)(C)C)C(C)(C)C)C(=O)NS(=O)(=O)C1CC1 ; cells: Huh7 ; strain: 1b ; result: 1–10 µM
C=C[C@H]1C[C@@]1(NC(=O)[C@@H]1C[C@@H](Oc2cc(-c3ccccc3)nc3cc(OC)ccc23)CN1C(=O)[C@@H](NC(=O)OC(C)(C)C)C(C)(C)C)C(=O)NS(=O)(=O)C1(CC)CC1 ; cells: Huh7 ; strain: 1b ; result: <0.05 µM
NS(=O)(=O)c1ccc(CNc2nc(NCC(F)(F)F)c3nc(-c4ccc(Cl)c(S(=O)(=O)NC5CCNC5)c4)ccc3n2)cc1 ; result: <0.1 µM
CNC(=O)c1c(-c2ccc(F)cc2)oc2cc(N3CCS(=O)CC3)c(OC(C)C)cc12 ; cells: Huh7 ; result: <10 µM